The match of structure and compound is tentative. Some results are limits rather than exact numbers.

Chains of the proteins cited; added tags and fusions are not shown. Lines headed by an entry give the natural chain unless they say otherwise; changes in a name come on top. A line that says so, or that is headed by a name, gives the form on record, which may keep a tag or linker. Residues count along the entry.
UniProt Q9WMX2, 1027-1207 limits assumed: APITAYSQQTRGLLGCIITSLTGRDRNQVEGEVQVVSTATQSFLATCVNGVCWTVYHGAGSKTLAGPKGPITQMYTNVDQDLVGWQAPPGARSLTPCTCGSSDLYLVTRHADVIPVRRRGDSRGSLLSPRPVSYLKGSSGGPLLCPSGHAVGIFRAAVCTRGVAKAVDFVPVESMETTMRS
UniProt P27958, 1658-1711 partner limits assumed: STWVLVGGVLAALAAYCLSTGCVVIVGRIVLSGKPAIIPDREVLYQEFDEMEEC
UniProt P27958, 1027-1711 with tags or gaps with the stated changes: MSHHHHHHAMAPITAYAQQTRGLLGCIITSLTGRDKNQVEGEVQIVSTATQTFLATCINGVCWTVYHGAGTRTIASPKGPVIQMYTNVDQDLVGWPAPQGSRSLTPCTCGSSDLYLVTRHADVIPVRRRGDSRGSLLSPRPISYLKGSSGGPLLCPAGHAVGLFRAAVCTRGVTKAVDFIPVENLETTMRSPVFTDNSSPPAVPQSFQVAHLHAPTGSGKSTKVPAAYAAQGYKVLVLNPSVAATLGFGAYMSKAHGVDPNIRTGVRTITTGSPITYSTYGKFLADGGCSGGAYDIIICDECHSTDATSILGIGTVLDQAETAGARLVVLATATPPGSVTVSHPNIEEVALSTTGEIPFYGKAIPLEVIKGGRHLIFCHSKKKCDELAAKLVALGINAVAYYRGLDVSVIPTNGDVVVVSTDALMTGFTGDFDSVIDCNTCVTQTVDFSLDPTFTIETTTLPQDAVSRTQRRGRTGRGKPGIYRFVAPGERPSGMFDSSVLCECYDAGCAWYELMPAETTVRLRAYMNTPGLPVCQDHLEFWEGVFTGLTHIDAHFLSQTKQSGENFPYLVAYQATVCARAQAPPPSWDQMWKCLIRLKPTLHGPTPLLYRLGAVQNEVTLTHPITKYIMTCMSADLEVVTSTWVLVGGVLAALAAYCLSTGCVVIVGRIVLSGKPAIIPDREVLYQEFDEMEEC

For the first experiment, the target named is HCV NS3 protease domain (Hepatitis C virus genotype 1b, UniProt Q9WMX2). The experiment can be described thus: HCV NS3 Protease Domain Peptide Cleavage Assay (Enzyme Assay 1), apparent Ki. Conditions: read-out: Enzyme Assay 1 (HCV NS3 Protease Domain Peptide Cleavage Assay) activity; apparent Ki class. The source says:
A DNA fragment encoding residues Ala^1-Ser^181 of the HCV NS3 protease (GenBank CAB46913) was obtained by PCR from the HCV Con1 replicon plasmid, I377neo/NS3-3′/wt (re-named as pBR322-HCV-Neo in this study) [V. Lohmann et al., Science, 285, pp. 110-113 (1999)] and inserted into pBEV11 (S. Chamber, et al., personal communication) for expression of the HCV proteins with a C-terminal hexa-histidine tag in E. coli. All constructs were confirmed by sequencing.
The expression constructs for the HCV NS3 serine protease domain was transformed into BL21/DE3 pLysS E. coli cells (Stratagene). Freshly transformed cells were grown at 37° C. in a BHI medium (Difco Laboratories) pplemented with 100 μg/mL carbenicillin and 35 μg/mL chloramphenicol to an optical density of 0.75 at 600 nm. Induction with 1 mM IPTG was performed for four hours at 24° C. The cell paste was harvested by centrifugation and flash frozen at −80° C. prior to protein purification. […]
The SMSY product was separated from substrate and KK4A using a microbore separation method. […] The SMSY product peak was quantitated using the data collected at […].
To evaluate apparent Ki values, all components except the test compound and substrate were pre-incubated for 5-10 minutes at room temperature. […] At the end of the reaction the mixture was quenched, and the extent of reaction was determined as described above. […]
On to `CCC[C@H](NC(=O)[C@@H]1C[C@]2(CC(c3cccc(Cl)c3)=NO2)CN1C(=O)[C@@H](NC(=O)NCC(F)F)C(C)(C)C)C(=O)C(=O)NC1CC1`, for which the Ki was less than 100 nM. As for `CCC[C@H](NC(=O)[C@@H]1C[C@]2(CC(c3cccc(Cl)c3)=NO2)CN1C(=O)[C@@H](NS(=O)(=O)c1ccc(C)cc1)c1ccccc1)C(=O)C(=O)NC1CC1`, the Ki was 100 to 500 nM.

The next experiment addresses full-length hepatitis C viral protein NS3•4A (Hepatitis C virus genotype 1a, UniProt P27958). The experiment can be described thus: HCV NS3 Peptide Cleavage Assay (Enzyme Assay 2), apparent Ki. Particulars: read-out: Enzyme Assay 2 (HCV NS3 Peptide Cleavage Assay) activity; apparent Ki class. The source says: Using standard recombinant DNA techniques, a cDNA fragment encoding the sequence for NS3 and NS4A, residues Ala1027 to Cys1711 from the HCV sub-type strain 1a, containing an N-terminal hexa-histidine sequence, was cloned into the baculoviral transfer vector pVL1392 (Webb N R and Summers M D (1990) Expression of proteins using recombinant baculoviruses, Techniques 2:173-188). […] The transfected insect cells containing recombinant baculovirus clones were subsequently isolated by plaque purification. High-titer clonal baculovirus was routinely used to infect SD insect cells for protein production. In production, Sf9 cells were grown at 27° C. until they reached a density of 2.0×10^6 cells/ml. At this point, the insect cells were infected with virus. After 72 hours or when the cell viability was between 70-80% the culture was harvested and the cells were ready for purification. The NS3•4A protein (SEQ ID NO:1) was purified as follows. Cell paste was thawed in at least five volumes of Lysis Buffer (50 mM Na2HPO4 pH 8.0, 10% Glycerol, 300 mM NaCl, 5 mM β-mercaptoethanol, 0.2 mM PMSF, 2.5 μg/ml Leupeptin, 1.0 μg/mlE64, 2.0 μg/ml Pepstatin) per gram of cell paste. The cell paste was then homogenized on ice using a Dounce homogenizer. The cells were next mechanically disrupted by passing once through a microfluidizer (Microfluidics Corporation, Newton, Mass.), and the cell lysate was collected on ice. The cell lysates was centrifuged at 100,000×g for 30 minutes at 4° C. and the supernatants were decanted. Optionally, the pellets were resuspended in wash buffer (Lysis Buffer+0.1% β-octyl glucopyranoside), homogenized using a Dounce homogenizer and centrifuged at 100,000×g for 30 minutes at 4° C. Insoluble NS3° 4A was extracted from the pellets by resuspending in Extraction Buffer (Lysis Buffer+0.5% lauryl maltoside) using 2.5 ml/g cell paste. The mixture was homogenized using a Dounce homogenizer and mixed at 4° C. for three hours or more. The mixture was centrifuged at 100,000×g for 30 minutes at 4° C. The supernatants were decanted and pooled. The NS3•4A protein was further purified using Nickel-NTA metal affinity chromatography. Imidazole from a 2 M stock, pH 8.0, solution was added to the pooled supernatants so that the final concentration of imidazole was 10 mM. The supernatants were incubated batchwise overnight at 4° C. with Nickel-NTA affinity resin that had been pre-equilibrated with Lysis Buffer+10 mM imidazole. 1 ml of resin per 5 μg of expected NS3-4A was used. The resin was next settled by gravity or by centrifugation at 500×g for five minutes. The resin was next poured into a gravity flow column and washed with 10 or more column volumes of Nickel Wash Buffer (Lysis Buffer+0.1% lauryl maltoside+10 mM imidazole). The column was next eluted with three to four column volumes of Nickel Elution Buffer (Nickel Wash Buffer+300 mM imidazole). The elution fractions were collected on ice and evaluated using SDS-PAGE. To prevent NS3-4A proteolysis, 100 μM DFP protease inhibitor was added to gel samples before adding SDS sample buffer and boiling. The peak fractions were pooled and protein concentration was determined by measuring absorbance at 280 ηm and by dividing by the extinction coefficient (e), which for NS3•4A is 1.01. The NS3•4A was purified further using gel filtration chromatography. A Superdex 200 26/60 column was equilibrated with Superdex Buffer (20 mM HEPES pH 8.0, 10% glycerol, 300 mM NaCl, 10 mM β-mercaptoethanol, 0.05% lauryl maltoside) at a rate of 3 ml/min. The nickel purified NS3•4A was concentrated in a Centriprep 30 to greater than 2 mg/ml, if necessary, and was filtered through a 0.2 μm syringe filter and up to 10 ml was loaded onto the Superdex 200 column. After 0.3 column volumes passed through, 4-5 ml fractions were collected. Fractions were evaluated by SDS-PAGE. NS3•4A protein elutes in two peaks. Peak 1 contains aggregated NS3•4A and peak 2 contains active protein. The fractions of peak 2 were pooled, aliquoted and frozen at −70° C. […]
As to `CCC[C@H](NC(=O)[C@@H]1C[C@]2(CC(c3cccc(Cl)c3)=NO2)CN1C(=O)[C@@H](NC(=O)CC(C)(C)OC)C(C)(C)C)C(=O)C(=O)NC`, the Ki lay in the range of 100 to 500 nM.

As for `CCC[C@H](NC(=O)[C@@H]1C[C@]2(CC(c3cccc(Cl)c3)=NO2)CN1C(=O)[C@@H](NC(=O)CC1CC2CCC1C2)C(C)(C)C)C(=O)C(=O)NC1CC1` (stereo partly shown) [Compound 467], the Ki was less than 100 nM. Still for that read-out and setting: the result for `CNC(=O)C(=O)[C@H](CC1CC1)NC(=O)[C@@H]1C[C@]2(CC(c3cccc(Cl)c3)=NO2)CN1C(=O)[C@@H](NC(=O)O[C@@H]1CC2CCC1C2)C(C)(C)C` (stereo partly shown) reads less than 100 nM. As to `CCC[C@H](NC(=O)[C@@H]1C[C@]2(CC(c3cccc(Cl)c3OC)=NO2)CN1C(=O)[C@@H](NC(=O)OC1CCCC1)C(C)(C)C)C(=O)C(=O)NC1CC1`, the Ki lay in the range of 100 to 500 nM. In the case of `CCC[C@@H](NC(=O)[C@@H]1C[C@]2(CC(c3cc(C)c(OC)c(C)c3)=NO2)CN1C(=O)[C@@H](NC(=O)OC1CCCC1)C(C)(C)C)C(=O)C(N)=O`, the Ki was 100 to 500 nM.

As to `CCC[C@H](NC(=O)[C@@H]1C[C@]2(CC(c3cc(C)c(OC)c(C)c3)=NO2)CN1C(=O)[C@@H](NC(=O)CC1CCCCC1)C(C)(C)C)C(=O)C(=O)NC`, the Ki is less than 100 nM.

As for `CCC[C@H](NC(=O)[C@@H]1C[C@]2(CC(c3cccc(Cl)c3)=NO2)CN1C(=O)[C@@H](NS(=O)(=O)c1ccc(C)cc1)c1ccccc1)C(=O)C(=O)NC1CC1`, the Ki was in the range of 100 to 500 nM.

Staying with this experiment, now noted: read-out: Enzyme Assay 2; HCV NS3 Peptide Cleavage Assay, apparent Ki.
As to `CNC(=O)C(=O)C(CC1CC1)NC(=O)C1CC2(CC(c3cc(C)c(OC)c(C)c3)=NO2)CN1C(=O)C(NC(=O)C1CC1c1c[nH]cn1)C(C)(C)C` (stereo not shown), the Ki was less than 100 nM.

As for `CCC[C@H](NC(=O)[C@@H]1C[C@]2(CC(c3cc(C)c(OC)c(Cl)c3)=NO2)CN1C(=O)[C@@H](NC(=O)[C@@H]1C[C@H]1c1ccccc1)C(C)(C)C)C(=O)C(=O)NC1CC1`, the Ki is less than 100 nM. As to `CCOc1c(C)cc(C2=NO[C@]3(C2)C[C@@H](C(=O)N[C@@H](CC2CC2)C(=O)C(N)=O)N(C(=O)[C@@H](NC(=O)OC2CCCC2)C(C)(C)C)C3)cc1C`, the Ki is less than 100 nM. `CCC[C@H](NC(=O)[C@@H]1C[C@]2(CC(c3cccc(Cl)c3)=NO2)CN1C(=O)[C@@H](NC(=O)C1(CC)COC1)C(C)(C)C)C(=O)C(=O)NC1CC1`: the Ki lay in the range of 100 to 500 nM. As to `CCC[C@H](NC(=O)[C@@H]1C[C@]2(CC(c3cc(C)c(OCC)c(C)c3)=NO2)CN1C(=O)[C@@H](NC(=O)OC(C)(C)C)C(C)(C)C)C(=O)C(=O)NC1CC1`, the Ki was less than 100 nM. In the case of `CCC[C@H](NC(=O)[C@@H]1C[C@]2(CC(c3cc(C)c(OC)cc3OC)=NO2)CN1C(=O)[C@@H](NC(=O)[C@@H]1C[C@H]1c1ccccc1)C(C)(C)C)C(=O)C(=O)NC`, the Ki was less than 100 nM. Turning to `CNC(=O)C(=O)[C@H](CC1CC1)NC(=O)[C@@H]1C[C@]2(CC(c3cc(Cl)c(OC)cc3OC)=NO2)CN1C(=O)[C@@H](NC(=O)[C@@H]1C[C@H]1c1ccccc1)C(C)(C)C`, the Ki was less than 100 nM.

Take `CNC(=O)C(=O)[C@H](CC1CC1)NC(=O)[C@@H]1C[C@]2(CC(c3cc(C)c(OC)c(C)c3)=NO2)CN1C(=O)[C@@H](NC(=O)[C@@H]1C[C@H]1c1ccccc1)C(C)(C)OC`: the Ki is less than 100 nM. On to `CCC[C@H](NC(=O)[C@@H]1C[C@]2(CC(c3cc(C)c(OCC)c(C)c3)=NO2)CN1C(=O)[C@@H](NC(=O)OC(C)(C)C)C(C)(C)C)C(=O)C(=O)NC`, for which the Ki is less than 100 nM. Take `CCC[C@H](NC(=O)[C@@H]1C[C@]2(CC(c3cc(C)c(OCC)c(C)c3)=NO2)CN1C(=O)[C@@H](NC(=O)CC1CCCCC1)C(C)(C)C)C(=O)C(=O)NC`: the Ki is less than 100 nM.

(Values after US7964624B1, “Inhibitors of serine proteases” (priority 2005, dated 2011).)
